# PubChem BioAssay AID504761, Drosophila RNAi Screening Center | 2011
# Purpose: 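Fly genes whose silencing reduces dengue virus type 2 infection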 (primary screen)
# Cell system: D.Mel-2 cells from Drosophila
# Reagent: long dsRNA against Drosophila genes
# Challenge: infection with dengue virus type 2; dose and infection time not stated
# Measured: 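Cells stained for dengue envelope protein and imaged; percent of infected cells per well on duplicate plates, ranked by infection, with stained nuclei counted for cell number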
# Scale: infection score: higher = more virus-infected cells
# Active means: 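Low infection ranks in the two replicates (chance level up to 0.065) followed by a retest with a 1.5-fold or larger significant decrease, p below 0.05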
# Calls: active = confirmed: knock-down lowers infection; inactive = not picked or not confirmed
# The deposit covers about 22,000 reagents; below is a random part of those with a known target gene and a result. In the full data, 116 (0.52%) were called active. 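Calls depend on retest data that are not deposited; infection was ranked per plate without normalising between plates; the unit of the infection score is not given.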 A number with no mark means an inactive call. A plus sign joins genes that one reagent is predicted to hit. Not all columns of the deposit are shown. The record does not give: the amount of reagent, the time to read-out.
Gene,dsRNA,"infection score, replicate 1","infection score, replicate 2"
CLS (Cardiolipin synthase),DRSC15642,8.41,16
CLS (Cardiolipin synthase),DRSC28289,18,15.8
Polr2M (RNA polymerase II subunit M),DRSC15513,1.8,2.55
Polr2M (RNA polymerase II subunit M),DRSC25856,1.17,4.32
CG32971,DRSC01372,4.53,1.63
Synd (Syndapin),DRSC15116,1.66,5.26
Ugt302E1 (UDP-glycosyltransferase family 302 member E1),DRSC15635,4.33,28.9
Ugt302E1 (UDP-glycosyltransferase family 302 member E1),DRSC29326,15.2,
CG17169,DRSC20905,7.29,3.65
Cyp313a3 (Cytochrome P450 313a3),DRSC16626,9.88,3.79
CG15237,DRSC04971,9.08,9.85
CR40441 (pseudo),DRSC22916,1.2,2.25
bowl,DRSC00805,2.18,3.73
bowl,DRSC28379,3.15,3.81
Wnt6 (Wnt oncogene analog 6),DRSC02795,10.7,14.4
Wnt6 (Wnt oncogene analog 6),DRSC26973,10.3,9.35
Kpc2 (Kip1 ubiquitination-promoting complex subunit 2),DRSC07635,2.25,7.42
mAcon2 (Mitochondrial aconitase 2),DRSC15629,4.02,6.82
mAcon2 (Mitochondrial aconitase 2),DRSC24696,4.43,5.23
COX5B (Cytochrome c oxidase subunit 5B),DRSC02115,3.53,4.84
Usp20-33 (Ubiquitin specific protease 20/33),DRSC07196,3.17,15.4
Nepl6 (Neprilysin-like 6),DRSC03242,19.7,5.27
Nepl6 (Neprilysin-like 6),DRSC26260,15.7,6.95
Axs (Abnormal X segregation),DRSC19333,2.45,1.9
CG6294 + CG6299,DRSC19980,5.61,23.5
CG6294 + CG6299,DRSC27443,37.9,11.3
CG8483,DRSC16430,11.6,8.89
Aasdh (Aminoadipate-semialdehyde dehydrogenase),DRSC03467,6.81,2.47
jing,DRSC04923,8.17,3.25
jing,DRSC05000,7.27,27.5
Dys + snoRNA:Me18S-A1374,DRSC16232,9.74,1.51
CIAPIN1 (Cytokine induced apoptosis inhibitor 1),DRSC03559,20.6,5.11
CIAPIN1 (Cytokine induced apoptosis inhibitor 1),DRSC24039,0.97,4.66
CG15536,DRSC15072,1.74,7.34
CG15536,DRSC22844,1.92,0.9
CG15536,DRSC27663,0.2,5.91
CG7183,DRSC16210,19.3,25.3
Ir94a (Ionotropic receptor 94a),DRSC13538,4.9,7.34
Ir94a (Ionotropic receptor 94a),DRSC28031,16.5,16.1
"Prosalpha4T1 (Proteasome alpha4 subunit, Testis-specific 1)",DRSC16800,2.43,1.06
"Prosalpha4T1 (Proteasome alpha4 subunit, Testis-specific 1)",DRSC28895,19.6,12.8
Syx1A (Syntaxin 1A),DRSC15359,3.48,4.07
Syx1A (Syntaxin 1A),DRSC21554,2.61,14.3
BG642163,DRSC00342,23.5,5.83
BG642163,DRSC00343,7.6,7.14
Cpr49Ah (Cuticular protein 49Ah),DRSC07204,2.58,13.3
Cpr49Ah (Cuticular protein 49Ah),DRSC29547,21.9,23.1
CG3108,DRSC18280,8.61,10
Chchd3 (Coiled-coil-helix-coiled-coil-helix domain containing 3),DRSC16981,1.41,1.54
Chchd3 (Coiled-coil-helix-coiled-coil-helix domain containing 3),DRSC26451,4.63,2.9
cl (clot),DRSC02118,4.7,9.7
Cdc5 (Cell division cycle 5),DRSC08577,24,19.3
Arf6 (ADP ribosylation factor 6),DRSC05921,6.21,14.6
Tfb5 + CG31917,DRSC28677,12,0.25
CG3009,DRSC18263,2.05,0.75
CG3009,DRSC28666,15.3,25.3
xmas-1 (retired record),DRSC20386,4.33,14.4
xmas-1 (retired record),DRSC24501,15.9,1.64

An excerpt of the results above:
Gene,dsRNA,"infection score, replicate 1","infection score, replicate 2"
Ir94a (Ionotropic receptor 94a),DRSC13538,4.9,7.34
Ir94a (Ionotropic receptor 94a),DRSC28031,16.5,16.1
"Prosalpha4T1 (Proteasome alpha4 subunit, Testis-specific 1)",DRSC16800,2.43,1.06
"Prosalpha4T1 (Proteasome alpha4 subunit, Testis-specific 1)",DRSC28895,19.6,12.8
Syx1A (Syntaxin 1A),DRSC15359,3.48,4.07
Syx1A (Syntaxin 1A),DRSC21554,2.61,14.3
